Legend:
[1] = system: T. cruzi amastigote; assay: Activity against intracellular amastigotes of T. cruzi within infected macrophages (Giemsa, light microscope, 48 h); type: cell-based, Trypanosoma cruzi (Y strain); conditions: selectivity index = CC50 against NCTC cells / EC50 against amastigotes
Description: The experimental animals were sourced from the animal breeding facility located at Instituto Adolfo Lutz in São Paulo State, Brazil. Peritoneal macrophages were extracted from female BALB/c mice for intracellular experiments, while male BALB/c mice were utilized to sustain T. cruzi. These animals were provided unlimited access to both water and food, residing in sterilized enclosures within a meticulously regulated environment. All procedures were previously approved by the Animal Ethics Commission of Instituto Adolfo Lutz.
NCTC cells (clone 929, ATCC) were cultured in RPMI-1640 supplemented with 10% of fetal bovine serum (FBS), at 37 °C within a 5% CO2-humidified incubator. To collect peritoneal macrophages, the abdominal cavity of female BALB/c mice was rinsed with an RPMI-1640 medium, containing 10% FBS. […]
The EC50 values for compounds 1–8 against intracellular amastigotes of T. cruzi were determined within infected macrophages. […] Trypomastigotes, previously derived from infected LLC-MK2 cells, underwent washing in an RPMI-1640 medium, were quantified, and were then employed to infect the macrophages at a concentration of 1 × 10^6 trypomastigotes per well. […] At the final stage of the experiment, the chamber slides were fixed using MeOH and stained with Giemsa before being assessed under a light microscope (Thermo EVOS M5000). […]

[2] = system: T. cruzi trypomastigote; assay: Activity against trypomastigote forms of T. cruzi (resazurin viability, 24 h); type: cell-based, Trypanosoma cruzi (Y strain); conditions: selectivity index = CC50 against NCTC cells / EC50 against trypomastigotes
Method: NCTC cells (clone 929, ATCC) were cultured in RPMI-1640 supplemented with 10% of fetal bovine serum (FBS), at 37 °C within a 5% CO2-humidified incubator. To collect peritoneal macrophages, the abdominal cavity of female BALB/c mice was rinsed with an RPMI-1640 medium, containing 10% FBS. These macrophages were then cultured overnight at 37 °C in a 5% CO2-humidified incubator. Trypanosoma cruzi trypomastigotes (Y strain) were maintained within Rhesus monkey kidney epithelial cells (LLC-MK2) cells using an RPMI-1640 medium supplemented with 2% FBS, and the incubation took place at 37 °C with 5% CO2 and humidity.
Tests of the activity from compounds 1–8 against the trypomastigote form of T. cruzi was performed, according to procedures previously reported. Trypomastigotes, in a concentration of 1 × 10^6 parasites/well, were seeded in 96-well plates and incubated with the tested compounds, alongside the standard drug benznidazole, in serial dilutions ranging from 1.7 to 150 μM, for 24 h at 37 °C in a 5% CO2 incubator. Subsequently, 20 μL of 10% resazurin was added, in order to determine cell viability. Absorbance was read in a plate spectrofluorometer Filter Max F5 Multi-Mode Microplate Reader at 570 nm. Untreated cells were used as negative controls, and cells treated with benznidazole were used as positive controls. The 50% effective concentration (EC50) against trypomastigote forms was determined by the regression of a sigmoid dose–response curve expressed in μM.
The CC50 and EC50 values were derived through the analysis of sigmoidal dose–response curves using GraphPad Prism 6.0 software. The samples were subjected to duplicate testing, and the experiments were replicated a minimum of two times.

SMILES	T. cruzi Amastigote SI [1]	T. cruzi Trypomastigote SI [2]	T. cruzi Trypomastigote SI ([2]; listed as benznidazole)
COc1c(O)cc2oc(-c3ccc(O)c(O)c3)cc(=O)c2c1O [Compound 5, Eupafolin]	> 74.1	–	–
O=C(Cn1ccnc1[N+](=O)[O-])NCc1ccccc1 [Benznidazole, benznidazole, reference compound]	>36.4	>10.7	> 10.7
C[C@H]1CC=C2C(CO)(CO)CCC[C@]2(C)[C@@H]1CC[C@H](CCO)COC(=O)/C=C/c1ccc(O)cc1 [Compound 2, gaudichaudol C]	–	> 68.7	–
COC1C[C@@H](CC[C@@H]2[C@@H](C)CC=C3C(CO)(CO)CCC[C@@]32C)CO1 (relative stereo) [Compound 1, 15,16-epoxy-18,19-dihydroxy-16-methoxy-syn-labd-5-ene]	–	>10.0	–
C=C1C[C@@]23CC[C@H]4[C@@](C)(CCC[C@@]4(C)C(=O)O)[C@@H]2CC[C@@H]1C3 [Compound 3, Ent-kaur-16-en-19-oic acid]	–	>18.8	–
